Results of unrelated studies side by side (data: NIAID ChemDB).

All rows: tests in culture; organism: Hepatitis C virus; measure: inhibition

Blank or dashed fields: not listed here. Percent inhibition refers to the dose given; in toxicity tests it is the harm to the cells. Lines come from different laboratories, so protocols vary.

compound	strain or isolate	mutations	cells	setting	method	dose	value
CC1(C)CC[C@@]2(C(=O)NCCCNC(=O)[C@]34CCC(C)(C)CC3C3=CCC5[C@@]6(C)CC[C@H](O)C(C)(C)C6CC[C@@]5(C)[C@]3(C)C[C@H]4O)C(C1)C1=CCC3[C@@]4(C)CC[C@H](O)C(C)(C)C4CC[C@@]3(C)[C@]1(C)C[C@H]2O			Huh7		luciferase / entry	5 µM	58.2%
COc1cc(C(c2cc(OC)c3c(c2)OCO3)[C@@H]2COC(=O)[C@@H]2C)cc2c1OCO2	Subgenomic replicon S52	T1056A T1429I S2204I	Huh7.5		luciferase	50 µM	88%
O=C1N/C(=N\c2nnc(-c3ccc(Cl)cc3)s2)S/C1=C\c1ccc(Cl)cc1Cl			Huh7/Rep-Feo1b		MTS	100 µM	0%
CC1(C)CC[C@@]2(C(=O)NCc3cn(CCCO)nn3)C(C1)C1=CCC3[C@@]4(C)CC[C@H](O)C(C)(C)C4CC[C@@]3(C)[C@]1(C)C[C@H]2O			Huh7		luciferase / entry	1 µM	35.7%
CCc1nc(CN2CCC(C(=O)Nc3cccc(-c4cccc(F)c4)c3)CC2)c(C)[nH]1	JFH-1		Huh7		PCR	15 µM	≥40%
CC1(C)CC[C@]2(C(=O)O)CC[C@]3(C)C(=CC[C@@H]4[C@@]5(C)CC[C@H](O)C(C)(C)[C@@H]5CC[C@]43C)[C@@H]2C1			Huh7	pseudotyped	luciferase / entry	1 µM	10.6%
O=C(Nc1cccc(-c2cccc(Cl)c2)c1)C1CCN(Cc2ccccn2)CC1	JFH-1		Huh7		PCR	15 µM	≥40%
CC1(C)CC[C@@]2(C(=O)NCc3cn(-c4ccc(-n5cc(CNC(=O)[C@]67CCC(C)(C)CC6C6=CCC8[C@@]9(C)CC[C@H](O)C(C)(C)C9CC[C@@]8(C)[C@]6(C)C[C@H]7O)nn5)cc4)nn3)C(C1)C1=CCC3[C@@]4(C)CC[C@H](O)C(C)(C)C4CC[C@@]3(C)[C@]1(C)C[C@H]2O			Huh7		luciferase / entry	1 µM	68.9%
CCn1cc(CN2CCC(C(=O)Nc3cccc(-c4cccc(Cl)c4)c3)CC2)cn1	JFH-1		Huh7		PCR	5 µM	≥40%
CC1(C)CC[C@]2(C(=O)O)[C@H](O)C[C@]3(C)C(=CC[C@@H]4[C@@]5(C)CC[C@H](O)C(C)(C)[C@@H]5CC[C@]43C)[C@@H]2C1			Huh7		luciferase / entry	1 µM	27.5%
Cc1nnc(-c2cccc(NC(=O)C3CCN(C(=O)c4ccco4)CC3)c2)s1	JFH-1		Huh7		PCR	15 µM	≥40%
CC1(C)CC[C@@]2(C(=O)NCCCCCCNC(=O)[C@]34CCC(C)(C)CC3C3=CCC5[C@@]6(C)CC[C@H](O)C(C)(C)C6CC[C@@]5(C)[C@]3(C)C[C@H]4O)C(C1)C1=CCC3[C@@]4(C)CC[C@H](O)C(C)(C)C4CC[C@@]3(C)[C@]1(C)C[C@H]2O			Huh7		luciferase / entry	1 µM	61.7%
COc1cc([C@@H]2O[C@H](c3cc(OC)c4c(c3)OCO4)[C@@H](C)[C@@H]2C)cc(OC)c1OC	Cell culture J6/JFH-1		Huh7.5			12.5 µM	100%
COc1cc(CN2CCC(C(=O)Nc3ccc(Oc4ccccc4F)cc3)CC2)ccc1O	JFH-1		Huh7		PCR	5 µM	≥40%
CC1(C)CC[C@@]2(C(=O)NCCOCCOCCOCCNC(=O)[C@]34CCC(C)(C)CC3C3=CCC5[C@@]6(C)CC[C@H](O)C(C)(C)C6CC[C@@]5(C)[C@]3(C)C[C@H]4O)C(C1)C1=CCC3[C@@]4(C)CC[C@H](O)C(C)(C)C4CC[C@@]3(C)[C@]1(C)C[C@H]2O			Huh7		luciferase / entry	5 µM	84.1%

A second listing of 2 rows from above:

| compound | strain or isolate | mutations | cells | setting | method | dose | value |
|---|---|---|---|---|---|---|---|
| COc1cc(CN2CCC(C(=O)Nc3ccc(Oc4ccccc4F)cc3)CC2)ccc1O | JFH-1 |  | Huh7 |  | PCR | 5 µM | ≥40% |
| CCn1cc(CN2CCC(C(=O)Nc3cccc(-c4cccc(Cl)c4)c3)CC2)cn1 | JFH-1 |  | Huh7 |  | PCR | 5 µM | ≥40% |